Assay results: patent publication US20090162366A1

Tests used:
Assay in all cases: ELISA on peptide, Ab 10 µg/ml
[1] = target: M12 (influenza A virus)
[2] = target: NM13 (influenza A virus)
[3] = target: CM14 (influenza A virus)
[4] = target: NM11 (influenza A virus)
[5] = target: CM13 (influenza A virus)
[6] = target: NM14 (influenza A virus)
[7] = target: CM15 (influenza A virus)
[8] = target: NM12 (influenza A virus)
[9] = target: CM16 (influenza A virus)
[10] = target: CM12 (influenza A virus)
[11] = target: CM17 (influenza A virus)

B1: N547 (antibody, V domains shown)
VH: EVQLVESGGGLVKPGGSLRLSCAASGFTFSNALMSWVRQAPGKGLEWVGRIKSKTNGGTTDYAAPVKGRFTISRDDSKNTLYLQMNSLKTEDTAVYYCTTHLRYFDWLSDYWGQGTLVTVSS
VL: QSVLTQPPSMSAAPGQKVTISCSGSSSNIGNNYISWYQQLPGTAPKVLIYDNNKRPSGIPDRFSGSKSGTSATLGITGLQTGDEADYYCGSWDSSLSAGVFGTGTKVTVLG
Question: B1 was tested. Which ELISA(OD450) [1] did it give?
Answer: 0.07 OD450

Question: And the ELISA(OD450) [2]?
Answer: 0.06 OD450

Question: What about the ELISA(OD450) [3] of the same binder?
Answer: 0.08 OD450

Question: And the ELISA(OD450) [4]?
Answer: 0.07 OD450

Question: And the ELISA(OD450) [5]?
Answer: 0.08 OD450

Question: What about the ELISA(OD450) [6] of the same binder?
Answer: 0.16 OD450

Question: What about the ELISA(OD450) [7] of the same binder?
Answer: 0.08 OD450

Question: What about the ELISA(OD450) [8] of the same binder?
Answer: 0.16 OD450

Question: What about the ELISA(OD450) [9] of the same binder?
Answer: 0.08 OD450

Question: What about the ELISA(OD450) [10] of the same binder?
Answer: 0.07 OD450

Question: What about the ELISA(OD450) [11] of the same binder?
Answer: 0.08 OD450
